We go through three substances from patent US5574015A (priority 1994, dated 1996).

Some peptides are written in HELM: one residue between dots, names in brackets for other building blocks, links after the first $.

The series in a line: general procedure: solution-phase peptide synthesis.

As to “PEPTIDE1{[PhCH2CH2CO].[NMeVal].[TbgCH2-(R)-CH(CH2COCMe3)CO].[Asp(cyPn)].[gMeLeucinol]}$$$$V2.0”, where the note is “late stage modification step”, the step yield is 95%.

“H-Tbq-CH2 CH(CH2 C(O)CMe3)C(O)-Asp(cyPn)(Bzl)-NH--(S)--CH(CH2 CMe3)CH2 OBzl” showed a step yield (late stage modification step) of 52%.

Substance “Boc-(N-Me)Val-Tbq-CH2 (R)--CH(CH2 C(O)CMe3)C(O)-Asp(cyPn) (Bzl)-NH--(S)--CH (CH2 CMe3)CH2 OBzl” gave a step yield (coupling step) of 72%.
